Compound potency records, mixed from different reports. Data source: NIAID ChemDB in PubChem.

All rows: tests in culture; agent: Candida albicans; measure: MIC

Blank or dashed fields: not listed here.

structure | strain | read by | value
C[C@H](n1ccnn1)[C@@](O)(Cn1cncn1)c1ccccc1F | TA |  | 100 µg/mL
CCCCCCCOc1ccc(N2CCN(c3ccc(C(=O)N[C@H]4CCCNC(=O)[C@@H]5C[C@H](N)CN5C(=O)[C@H]([C@@H](C)O)NC(=O)[C@H](CCc5ccc(C)cc5)NC(=O)[C@@H]5CCCN5C(=O)[C@H]([C@@H](C)O)NC4=O)cc3)CC2)cc1 | ATCC 38247 |  | 6.25 µg/mL
O=[N+]([O-])c1ccccc1SNc1ccc2c(c1)Sc1ccccc1O2 | C316 |  | 0.9 µg/mL
CCCCCOc1ccc(-c2ccc(-c3ccc(C(=O)N[C@H]4CCCNC(=O)[C@@H]5C[C@H](N)CN5C(=O)C(C)(C)NC(=O)C(CCc5ccc(O)cc5)NC(=O)[C@@H]5C[C@@H](O)CN5C(=O)[C@H]([C@@H](C)O)NC4=O)cc3)cc2)cc1 | ATCC 38247 |  | 25 µg/mL
O=C(Nc1nc2ccc(NC(=O)[C@H]3CCC[C@@H](NCc4ccc5ccccc5c4)C3)cc2s1)C1CCCC1 |  |  | 3.13 µM
Cc1ccc(-c2c(CN)c(=O)n3[nH]c(-c4c(O)c(O)c(O)c(O)c4CO)nc3c2CN)o1 |  |  | 12.5 µg/mL
Cc1ccc(C(Cn2ccnc2)OCc2ccc(-c3ccccc3)cc2)cc1 | CA12 |  | 128 µg/mL
CC(Cc1cc2cc(C(=N)N)ccc2o1)c1cc2cc(C(=N)N)ccc2o1 |  |  | 3 µg/mL
O=C(NNC(=S)Nc1ccc(F)cc1F)c1cc2ccccc2[nH]1 | ATCC 10231 | agar | >400 µg/mL
CC(n1nccn1)C(O)(Cn1cncn1)c1ccc(Cl)cc1 | TA |  | 100 µg/mL
COc1ccc2c(Cc3ccc(C(C)(C)C)cc3)c3[n+](cc2c1OC)CCc1cc2c(cc1-3)OCO2 | ATCC28838 |  | 3.13 µg/mL
C[C@@H](O)[C@@H]1NC(=O)[C@H](CCc2ccc(O)cc2)NC(=O)[C@@H]2C[C@@H](O)CN2C(=O)[C@H]([C@@H](C)O)NC(=O)[C@@H](NCC2CCCCC2)CCCNC(=O)[C@@H]2C[C@H](N)CN2C1=O | ATCC 38247 |  | 0.2 µg/mL
CC(n1nccn1)C(O)(Cn1cncn1)c1ccc(F)cc1 | TA |  | 100 µg/mL
CC[C@@H]([C@H](C)O)n1ncn(-c2ccc(N3CCN(c4ccc(OC[C@@H]5CO[C@@](Cn6cncn6)(c6ccc(F)cc6F)C5)cc4)CC3)cc2)c1=O | Isolate CA-5 |  | >4 µg/mL
C[C@H]1[C@H](O)[C@@H](C)/C=C/C=C/C=C/C=C/C=C/C=C/C=C/[C@H](O[C@@H]2O[C@H](C)[C@@H](O)[C@H](N)[C@@H]2O)C[C@@H]2O[C@](O)(C[C@@H](O)C[C@@H](O)CC[C@H](O)[C@@H](O)C[C@@H](O)CC(=O)O[C@H]1C)C[C@H](O)[C@H]2C(=O)O | ATCC11651 |  | 1 µg/mL
O=S(=O)(Nc1ccc2c(c1)Sc1ccccc1O2)c1ccc(Br)cc1 | C316 |  | 8 µg/mL
Cc1nnsc1C(=O)NNC(=S)Nc1ccccc1Br | ATCC 90028 | agar | 200 µg/mL
CO[C@H]1C[C@@H]2CC[C@@H](C)[C@@](O)(O2)C(=O)C(=O)N2CCCC[C@H]2C(=O)O[C@H]([C@H](C)C[C@@H]2CC[C@H](c3nn[nH]n3)[C@H](OC)C2)CC(=O)[C@H](C)/C=C(\C)[C@@H](O)[C@@H](OC)C(=O)[C@H](C)C[C@H](C)CCCC/C=C/1C | 442 |  | >100 µg/mL
Cc1ccc(-c2c(CN)c(N)n(N)c(=O)c2CN)o1 |  |  | 1.56 µg/mL
CCC(C)n1ncn(-c2ccc(N3CCN(c4ccc(OC[C@H]5CO[C@](Cn6cncn6)(c6ccc(Cl)cc6Cl)O5)cc4)CC3)cc2)c1=O | Isolate CA-3 |  | >8 µg/mL
CCCCCOc1ccc(-c2ccc(-c3ccc(C(=O)N[C@H]4CCCNC(=O)[C@@H]5[C@@H](O)CCN5C(=O)[C@H]([C@@H](C)O)NC(=O)[C@H](CCc5ccc(O)cc5)NC(=O)[C@@H]5C[C@@H](O)CN5C(=O)[C@H]([C@@H](C)O)NC4=O)cc3)cc2)cc1 | ATCC 38247 |  | 0.78 µg/mL
Cc1nnsc1C(=O)NNC(=S)Nc1ccc(Cl)cc1Cl | ATCC 10231 | agar | 200 µg/mL
Clc1ccc(C(Cn2ccnc2)OCc2ccc(-c3ccccc3)cc2)cc1 | CA12 |  | >128 µg/mL
N=C(N)c1ccc2oc(/C=C/c3cc4ccc(C(=N)N)cc4[nH]3)cc2c1 |  |  | >60 µg/mL
O=C(Nc1nc2ccc(NC(=O)[C@@H]3CC[C@H](NCc4ccc5ccccc5c4)C3)cc2s1)C1CCCC1 |  |  | 6.25 µM
O=C(O)c1c(Br)c(Br)c(Br)c(Br)c1S(=O)(=O)Nc1ccc2c(c1)Sc1ccccc1O2 | C316 |  | 16 µg/mL
Cc1ccccc1NC(=S)NNC(=O)c1cc2ccccc2cn1 | ATCC 90028 | agar | 50 µg/mL
Clc1ccc(C(Cn2ccnc2)OCc2ccc(-c3ccccc3)cc2)c(Cl)c1 | Y0109 |  | 128 µg/mL
CC(n1ccnn1)C(O)(Cn1cncn1)c1ccc(Cl)cc1 | TA |  | 50 µg/mL
COc1ccc(-c2nc3c(CN)c(-c4ccc(C)o4)c(CN)c(=O)n3[nH]2)cc1 |  |  | 0.19 µg/mL
N=C(N)c1ccc(-c2sc3ccc(C(=N)N)cc3c2N)cc1 |  |  | 30 µg/mL
COc1cc(O)c2c(c1)C(=O)c1c(cc3c(c1O)-c1c(cc(C)c(C(=O)NCC(=O)O)c1O)[C@H](OC1OC(C)C(N(C)C)C(OC4OCC(O)C(O)C4O)C1O)[C@H]3O)C2=O | ATCC 38247 (amphotericin B-resistant) |  | 1.6 µg/mL
CC(n1nccn1)C(O)(Cn1cncn1)c1ccc(C(F)(F)F)cc1 | TA |  | >100 µg/mL
CCCCCOc1ccc(-c2ccc(-c3ccc(C(=O)N[C@H]4CCCNC(=O)[C@@H]5C[C@H](N)CN5C(=O)[C@H](CO)NC(=O)C(CCc5ccc(O)cc5)NC(=O)[C@@H]5C[C@@H](O)CN5C(=O)[C@H]([C@@H](C)O)NC4=O)cc3)cc2)cc1 | ATCC 62376 |  | 0.1 µg/mL
O=C(Nc1nc2ccc(NC(=O)[C@@H]3CCC[C@@H](NCc4ccc5ccccc5c4)C3)cc2s1)C1CC1 |  |  | 3.13 µM
Cc1cc(-c2ccccc2)cc(C)[n+]1-c1ccc(S(=O)(=O)Nc2ccc3c(c2)Sc2ccccc2O3)cc1 | C316 |  | 8 µg/mL
Cc1c(O)cccc1C(=O)N[C@@H](CSc1ccccc1)[C@H](O)CN1C[C@H]2CCCC[C@H]2C[C@H]1C(=O)NC(C)(C)C | I112A |  | >64 µg/mL
COC1CC2CCC(C)C(O)(O2)C(=O)C(=O)N2CCCCC2C(=O)OC(C(C)CC2CCC(O)C(C)C2)CC(=O)C(C)/C=C(\C)C(O)C(O)C(=O)C(C)CC(C)/C=C/C=C/C=C/1C | ATCC11651 |  | 0.3125 µg/mL
CO[C@@H]1C[C@H](C[C@@H](C)[C@@H]2CC(=O)[C@H](C)/C=C(\C)[C@@H](O)[C@@H](OC)C(=O)[C@H](C)C[C@H](C)/C=C/C=C/C=C(\C)[C@@H](N(O)C(=O)N(C)C)C[C@@H]3CC[C@@H](C)[C@@](O)(O3)C(=O)C(=O)N3CCCC[C@H]3C(=O)O2)CC[C@H]1C(=O)ON(C)O | 38247 |  | 100 µg/mL
CC(C)(C)c1ccc(COC(Cn2ccnc2)c2ccccc2)cc1 | CA6 |  | 128 µg/mL
O=C(Nc1nc2ccc(NC(=O)[C@@H]3CCC[C@@H](NCc4ccc5ccccc5c4)C3)cc2s1)C1CCCC1 |  |  | 0.78 µM
CCCCCCCCCC(O)CC(=O)CCc1ccc(O)c(OC)c1 | CN1A |  | 750 µg/mL
COc1ccc(S(=O)(=O)Nc2ccc3c(c2)Sc2ccccc2O3)cc1 | C316 |  | 6 µg/mL
N=C(N)c1ccc(/C=C/C=C/C=C/c2cc3cc(C(=N)N)ccc3o2)cc1 |  |  | 30 µg/mL
CO[C@H]1C[C@@H]2CC[C@@H](C)[C@@](O)(O2)C(=O)C(=O)N2CCCC[C@H]2C(=O)O[C@H]([C@H](C)C[C@@H]2CC[C@@H](C(=O)ON(C)OC)[C@H](OC)C2)CC(=O)[C@H](C)/C=C(\C)[C@@H](O)[C@@H](OC)C(=O)[C@H](C)C[C@H](C)CCCC/C=C/1C | 10231 |  | 50 µg/mL
N=C(N)c1ccc2oc(-c3ccc(C4=NCCN4)cc3)cc2c1 |  |  | >60 µg/mL
C(=C\c1ccccc1)/COC(Cn1ccnc1)c1ccccc1 | Y0109 |  | >128 µg/mL
CO[C@H]1C[C@@H]2CC[C@@H](C)[C@@](O)(O2)C(=O)C(=O)N2CCCC[C@H]2C(=O)O[C@H]([C@H](C)C[C@@H]2CC[C@@H](C(=O)ON3CCOCC3)[C@H](OC)C2)CC(=O)[C@H](C)/C=C(\C)[C@@H](O)[C@@H](OC)C(=O)[C@H](C)C[C@H](C)CCCC/C=C/1C | 10231 |  | >100 µg/mL
O=[N+]([O-])c1cccc(S(=O)(=O)Nc2ccc3c(c2)Sc2ccccc2O3)c1 | C316 |  | 5 µg/mL
Clc1ccc(C(Cn2ccnc2)OCc2cccc3ccccc23)cc1 | 3M |  | 128 µg/mL
CCCCCOc1ccc(-c2ccc(-c3ccc(C(=O)N[C@H]4CCCNC(=O)[C@@H]5C[C@H](NCc6ccccc6)CN5C(=O)[C@H]([C@@H](C)O)NC(=O)[C@H](CCc5ccc(O)cc5)NC(=O)[C@@H]5C[C@@H](O)CN5C(=O)[C@H]([C@@H](C)O)NC4=O)cc3)cc2)cc1 | ATCC 62376 |  | 0.39 µg/mL
CN(C)S(=O)(=O)Nc1ccc2c(c1)Sc1ccccc1O2 | C316 |  | 10 µg/mL
CCCCCCCCCCCCCC[C@H](N)C(=O)N[C@H](C(=O)O)C1O[C@@H](n2ccc(=O)[nH]c2=O)[C@H](O)[C@@H]1O | 124 NIK (nikkomycin-R) |  | >320 µg/mL
O=C(NCCNCc1ccc(-c2ccccc2)cc1)c1ccc2nc(NC(=O)C3CCCCC3)sc2c1 |  |  | >8 µM
Clc1ccc(C(Cn2ccnc2)OC/C=C/c2ccccc2)c(Cl)c1 | CA2 |  | 2 µg/mL
CCCCCOc1ccc(-c2ccc(-c3ccc(C(=O)N[C@H]4CCCNC(=O)[C@@H]5C[C@H](N)CN5C(=O)[C@@H]([C@H](C)O)NC(=O)C(CCc5ccc(O)cc5)NC(=O)[C@@H]5C[C@@H](O)CN5C(=O)[C@H]([C@@H](C)O)NC4=O)cc3)cc2)cc1 | ATCC 38247 |  | 6.25 µg/mL
C[C@H]1[C@H](O)[C@@H](C)/C=C/C=C/C=C/C=C/C=C/C=C/C=C/[C@H](O[C@@H]2O[C@H](C)[C@@H](O)[C@H](N)[C@@H]2O)C[C@@H]2O[C@](O)(C[C@@H](O)C[C@@H](O)CC[C@H](O)[C@@H](O)C[C@@H](O)CC(=O)O[C@H]1C)C[C@H](O)[C@H]2C(=O)O | KB |  | 0.5 µg/mL

The last 7 rows once more:

structure | strain | read by | value
CCCCCOc1ccc(-c2ccc(-c3ccc(C(=O)N[C@H]4CCCNC(=O)[C@@H]5C[C@H](NCc6ccccc6)CN5C(=O)[C@H]([C@@H](C)O)NC(=O)[C@H](CCc5ccc(O)cc5)NC(=O)[C@@H]5C[C@@H](O)CN5C(=O)[C@H]([C@@H](C)O)NC4=O)cc3)cc2)cc1 | ATCC 62376 |  | 0.39 µg/mL
CN(C)S(=O)(=O)Nc1ccc2c(c1)Sc1ccccc1O2 | C316 |  | 10 µg/mL
CCCCCCCCCCCCCC[C@H](N)C(=O)N[C@H](C(=O)O)C1O[C@@H](n2ccc(=O)[nH]c2=O)[C@H](O)[C@@H]1O | 124 NIK (nikkomycin-R) |  | >320 µg/mL
O=C(NCCNCc1ccc(-c2ccccc2)cc1)c1ccc2nc(NC(=O)C3CCCCC3)sc2c1 |  |  | >8 µM
Clc1ccc(C(Cn2ccnc2)OC/C=C/c2ccccc2)c(Cl)c1 | CA2 |  | 2 µg/mL
CCCCCOc1ccc(-c2ccc(-c3ccc(C(=O)N[C@H]4CCCNC(=O)[C@@H]5C[C@H](N)CN5C(=O)[C@@H]([C@H](C)O)NC(=O)C(CCc5ccc(O)cc5)NC(=O)[C@@H]5C[C@@H](O)CN5C(=O)[C@H]([C@@H](C)O)NC4=O)cc3)cc2)cc1 | ATCC 38247 |  | 6.25 µg/mL
C[C@H]1[C@H](O)[C@@H](C)/C=C/C=C/C=C/C=C/C=C/C=C/C=C/[C@H](O[C@@H]2O[C@H](C)[C@@H](O)[C@H](N)[C@@H]2O)C[C@@H]2O[C@](O)(C[C@@H](O)C[C@@H](O)CC[C@H](O)[C@@H](O)C[C@@H](O)CC(=O)O[C@H]1C)C[C@H](O)[C@H]2C(=O)O | KB |  | 0.5 µg/mL

Conditions beyond the fields shown may differ between rows.